Compound potency records, mixed from different reports. Data source: NIAID ChemDB in PubChem.

Shared fields: enzyme or target tests; organism: HIV-1; protein: Protease; read-out: IC50

An empty or dashed field is not shown.

compound	strain or isolate	read by	value
Cc1ccc(C(=O)N(C)Cc2cnccn2)cc1C(=O)N[C@@H](Cc1ccccc1)[C@@H](O)CN1C[C@H]2CCCC[C@H]2C[C@H]1C(=O)NC(C)(C)C	-	fluorescence	0.0161 µg/mL
CCC(C1=C(O)CC2(CCCCCCC2)OC1=O)c1ccccc1	-	fluorescence	>3 µM
CC(C)(C)OC(=O)N[C@@H](Cc1ccc(O)cc1)[C@@H](O)C[C@@H](Cc1ccccc1)C(=O)N[C@H]1c2ccccc2C[C@H]1O	-	HPLC	0.0001–0.01 µM
Cc1ccc(C(=O)N(C)Cc2ccncc2)cc1C(=O)N[C@@H](Cc1ccccc1)[C@@H](O)CN1C[C@H]2CCCC[C@H]2C[C@H]1C(=O)NC(C)(C)C	-	fluorescence	0.005 µg/mL
CC(C)[C@H](NC(=O)OCc1ccccn1)C(=O)N[C@@H](Cc1ccccc1)[C@H](O)[C@H](O)[C@H](Cc1ccccc1)NC(=O)CCC(=O)O	-	fluorescence	<0.01 µM
CC(C)(C)CNC(=O)[C@H](Cc1ccccc1)[C@H](O)CN1C[C@H]2CCCC[C@H]2C[C@H]1C(=O)NC(C)(C)C	-	-	0.02 µM
CC(=O)OC1C(=O)C2=C(C(=O)CC3C(C)(C)[C@@H](O)CC[C@]23C)[C@]2(C)[C@H](O)C[C@H]([C@H](C)CC(=O)CC(C)C(=O)O)[C@@]12C	-	-	190 µM
Cc1ccccc1CNC(=O)[C@H]1N(C(=O)[C@@H](O)[C@H](Cc2ccc(Cl)cc2)NC(=O)c2cccc(O)c2C)CSC1(C)C	-	HPLC	<0.05 µg/mL
C[C@H](CC(=O)C[C@@H](C)[C@H]1CC(=O)[C@@]2(C)C3=C(C(=O)C[C@]12C)[C@@]1(C)CC[C@H](O)C(C)(C)[C@@H]1C[C@@H]3O)C(=O)O	-	-	170 µM
O=[N+]([O-])c1cccc(CO[C@@H]2[C@H](O)[C@@H](O)[C@@H](OCc3cccc([N+](=O)[O-])c3)[C@@H](Cc3ccccc3)S(=O)(=O)[C@@H]2Cc2ccccc2)c1	-	fluorescence	<2 µM
CC1(C)S[C@@H]2[C@H](NC(=O)Cc3ccccc3)C(=O)N2[C@H]1C(=O)NCCNC(=O)[C@@H]1N2C(=O)[C@@H](NC(=O)Cc3ccccc3)[C@H]2SC1(C)C	RF	HPLC	0.06 µM
O=S1(=O)[C@H](Cc2ccccc2)[C@H](OCc2ccccn2)[C@H](O)[C@@H](O)[C@@H](OCc2ccccn2)[C@H]1Cc1ccccc1	-	fluorescence	<2 µM
Cc1ccccc1CNC(=O)[C@H]1N(C(=O)[C@@H](O)[C@H](Cc2ccccc2)NC(=O)c2ccc(F)c(O)c2C)CSC1(C)C	-	HPLC	<0.05 µg/mL
O=C(N[C@@H](Cc1ccccc1)[C@H](Cc1ccccc1)n1cc(CN2CCN(c3ccc(Cl)c(Cl)c3)CC2)nn1)OC1CCCC1	-	fluorescence	<5 µM
CC[C@H](C)[C@@H]1NC(=O)[C@@H](NC[C@@H](O)[C@H](Cc2ccc(OCC(=O)O)cc2)NC(=O)OC(C)(C)C)Cc2ccc(cc2)OCCCNC1=O	-	fluorescence	0.025 µM
CC(C)(C)OC(=O)N[C@@H](Cc1ccc(O)cc1)[C@@H](O)C[C@@H](Cc1ccc(O)cc1)C(=O)N[C@H]1c2ccccc2C[C@H]1O	-	HPLC	0.0001–0.01 µM
N#Cc1ccc(O[C@@H]2[C@H](O)[C@@H](O)[C@@H](Oc3ccc(C#N)cc3)CS(=O)(=O)[C@@H]2Cc2ccccc2)cc1	-	fluorescence	2–10 µM
O=C(N[C@@H](Cc1ccccc1)[C@H](Cc1ccccc1)n1cc(CN2CCN(c3ccc(C(F)(F)F)cc3)CC2)nn1)OC1CCCC1	-	fluorescence	~5 µM
C[C@H](CC(=O)C[C@@H](C)[C@H]1C[C@H](O)[C@@]2(C)C3=C(C(=O)C[C@]12C)[C@@]1(C)CCC(=O)C(C)(C)[C@@H]1C[C@@H]3O)C(=O)O	-	-	>1000 µM
CC[C@H](C)[C@H](NC(=O)[C@H](Cc1ccccc1)NC[C@H](O)[C@H](Cc1ccccc1)NC(=O)[C@@H](NC(=O)[C@H](CC(C)C)NC(C)=O)C(C)C)C(=O)N[C@H](C(N)=O)C(C)C	-	fluorescence	0.005 µM
CCc1ccc(C(=O)N[C@@H](Cc2ccccc2)[C@@H](O)Cc2ccccc2C(=O)NC(C)(C)C)cc1C(=O)N1CCc2ccccc2C1	-	fluorescence	0.035 µg/mL
Cc1cccc(C)c1CNC(=O)[C@H]1N(C(=O)[C@@H](O)[C@H](Cc2ccc3c(c2)OCO3)NC(=O)c2cccc(N)c2Cl)CSC1(C)C	-	HPLC	<0.05 µg/mL
N#Cc1ccc(O[C@@H]2[C@H](O)[C@@H](O)[C@@H](Oc3ccc(C#N)cc3)CS[C@@H]2Cc2ccccc2)cc1	-	fluorescence	2–10 µM
CC(C)(C)NC(=O)[C@@H]1C[C@@H]2CCCC[C@@H]2CN1C[C@@H](O)[C@@H](Cc1ccccc1)C(=O)NC1CCc2ccccc21	-	-	0.055 µM
COc1ccc(C[C@H](NC(=O)c2cccc(N)c2Cl)[C@H](O)C(=O)N2CSC(C)(C)[C@H]2C(=O)NCc2c(C)cccc2C)cc1	-	HPLC	<0.05 µg/mL
CC(C)[C@H](NC(=O)CCc1cccnc1)C(=O)N[C@@H](Cc1ccccc1)C(O)[C@H](Cc1ccccc1)NC(=O)[C@@H](NC(=O)CCc1cccnc1)C(C)C	-	fluorescence	<0.1 µM
CC(C)(C)NC(=O)[C@@H]1CN(Cc2cc3sccc3s2)CCN1C[C@@H](O)C[C@@H](Cc1ccncc1)C(=O)N[C@H]1c2ccccc2C[C@H]1O	-	-	0.00008 µM
Cc1ccc(Cl)cc1N1CCN(Cc2cn([C@@H](Cc3ccccc3)[C@H](Cc3ccccc3)NC(=O)C3CCCCC3)nn2)CC1	-	fluorescence	>5 µM
Nc1ccc(CO[C@@H]2[C@H](O)[C@@H](O)[C@@H](OCc3ccc(N)c(C(F)(F)F)c3)[C@@H](Cc3ccccc3)S(=O)(=O)[C@@H]2Cc2ccccc2)cc1C(F)(F)F	-	fluorescence	<2 µM
CC[C@H](C)[C@H](NC(=O)[C@@H]1CCCN1C[C@@H](O)[C@H](Cc1ccccc1)NC(=O)[C@H](CC(N)=O)NC(=O)[C@H](CC(C)C)NC(=O)[C@H](CO)NC(C)=O)C(=O)N[C@H](C(=O)OC)C(C)C	-	fluorescence	0.044 µM
CCOc1ccc(C[C@H](NC(=O)c2cccc(N)c2Cl)[C@H](O)C(=O)N2CSC(C)(C)[C@H]2C(=O)NCc2ccccc2C)cc1	-	HPLC	<0.05 µg/mL
O[C@@H]1[C@@H](O)[C@@H](OCc2ccccc2)CS[C@H](Cc2ccccc2)[C@@H]1OCc1ccccc1	-	fluorescence	10–50 µM
CC(C)C[C@H](NC(=O)[C@H](Cc1ccccc1)C[C@H](O)[C@H](Cc1ccccc1)NC(=O)OC(C)(C)C)C(=O)NCCOP(=O)(O)O	-	HPLC	0.0001–0.01 µM
CCNC(=O)[C@@H](NC(=O)Cc1ccccc1)[C@@H]1N[C@@H](C(=O)NCCNC(=O)[C@@H]2N[C@@H]([C@H](NC(=O)Cc3ccccc3)C(=O)NCC)SC2(C)C)C(C)(C)S1	RF	HPLC	0.0048 µM
CNC(=O)[C@H](Cc1ccccc1)[C@H](O)CN1C[C@H]2CCCC[C@H]2C[C@H]1C(=O)NC(C)(C)C	-	-	1.2 µM
Cc1cccc(CO[C@@H]2[C@H](O)[C@@H](O)[C@@H](OCc3cccc(C)n3)[C@@H](Cc3ccccc3)S(=O)(=O)[C@@H]2Cc2ccccc2)n1	-	fluorescence	10–50 µM
Cc1ccccc1CNC(=O)[C@H]1N(C(=O)[C@@H](O)[C@H](Cc2ccccc2)NC(=O)c2cccc(N)c2Cl)CSC1(C)C	-	HPLC	<0.05 µg/mL
C[C@H](CCC=C(CO)CO)[C@H]1C[C@H](O)[C@@]2(C)C3=CC[C@H]4C(C)(C)C(=O)CC[C@]4(C)C3=CC[C@]12C	-	-	170 µM
CC(C)(C)OC(=O)N[C@@H](CC1CCCCC1)[C@@H](O)CC(=O)N[C@@H](CCC(=O)O)C(=O)N[C@@H](Cc1ccccc1)C(N)=O	-	HPLC	0.0001–0.01 µM
CC(C)(CO)CNC(=O)[C@H](Cc1ccccc1)[C@H](O)CN1C[C@H]2CCCC[C@H]2C[C@H]1C(=O)NC(C)(C)C	-	-	0.49 µM
CC(C)C[C@H](NC(=O)[C@H](Cc1ccccc1)C[C@H](O)[C@H](Cc1ccccc1)NC(=O)OC(C)(C)C)C(=O)NCc1ccccc1	-	HPLC	0.0014 µM
Cc1c(C(=O)N[C@@H](Cc2ccccc2)[C@@H](O)Cc2ccccc2C(=O)NC(C)(C)C)cccc1C(=O)N1CCc2ccccc2C1	-	fluorescence	1 µg/mL
C=CC(C)(C)c1c(O)ccc2c(=O)c3c(O)c(CC=C(C)C)c(OC)c(O)c3oc12	-	substrate cleavage	11.3 µg/mL
CC(C)(C)OC(=O)N[C@@H](Cc1ccccc1)[C@@H](O)C[C@@H](Cc1ccccc1)C(=O)N[C@H]1c2ccccc2OC[C@H]1O	-	HPLC	0.0001–0.01 µM
Cc1ccc(C(=O)N(C)Cc2ccc3ccccc3c2)cc1C(=O)N[C@@H](Cc1ccccc1)[C@@H](O)CN1C[C@H]2CCCC[C@H]2C[C@H]1C(=O)NC(C)(C)C	-	fluorescence	0.0066 µg/mL
CC[C@H](C)C(NC(=O)[C@@H]1CCCN1C[C@@H](O)[C@@H]1Cc2ccc(cc2)OCC(=O)NCC(=O)N[C@@H](CC(N)=O)C(=O)N1)C(=O)N[C@H](C(N)=O)C(C)C	-	fluorescence	0.7 µM
CC(C)[C@H](NC(=O)[C@H](Cc1ccccc1)C[C@H](O)[C@H](Cc1ccccc1)NC(=O)OC(C)(C)C)C(=O)NCCCN(C)C	-	HPLC	0.0001–0.01 µM
CC(C)[C@H](NC(=O)OCc1ccccc1)C(=O)N[C@@H](Cc1ccccc1)[C@H](O)[C@H](Cc1ccccc1)NC(=O)[C@@H](NC(=O)c1cccnc1)C(C)C	-	fluorescence	<0.0025 µM
CC(C)[C@@H]1NC(=O)CCCCCOc2ccc(cc2)C[C@@H]([C@H](O)CN2CCCC[C@H]2C(=O)NC(C)(C)C)NC1=O	-	fluorescence	0.085 µM
CC[C@H](C)[C@H](NC(=O)OCc1ccccc1)C(=O)N[C@@H](Cc1ccccc1)C(O)[C@H](Cc1ccccc1)NC(=O)[C@@H](NC(=O)OCc1ccccc1)[C@@H](C)CC	-	fluorescence	<0.005 µM
CC(C)(C)OC(=O)N[C@@H](Cc1ccccc1)[C@H](O)CNC[C@@H](O)[C@H](Cc1ccccc1)NC(=O)OC(C)(C)C	-	substrate cleavage	0.136 µM

a–b is a range or a potency band. Neighbouring rows are from separate reports. ICn: concentration for n% inhibition.